Source: patent US4463182A, “Antibiotic roridin E-2” (dated 1984)

What was measured:
B16 Melanocarcinoma = experiment: Antitumor Activity of Roridin E-2 Against B16 Melanocarcinoma in Mice; details: 3.12 mg/kg/day, median survival time treated/control × 100
P388 Lymphatic Leukemia = experiment: Antitumor Activity of Roridin E-2 Against P388 Lymphatic Leukemia in Mice; details: median survival time treated/control × 100, ≥ 125 considered active

CC1=CC(=O)OCC23CCC(C)=CC2OC2CC(OC(=O)C=CC=CC(C(C)O)OCC1)C3(C)C21CO1 (stereo not shown)
T/C percent MST (B16 Melanocarcinoma): 269% and 202%
T/C percent MST (P388 Lymphatic Leukemia; 1.56 mg/kg/day): 127%
T/C percent MST (P388 Lymphatic Leukemia; 3.12 mg/kg/day): 131%
T/C percent MST (P388 Lymphatic Leukemia; 6.25 mg/kg/day): 166% and 165%

Where “and” joins values, the source holds several entries; their conditions need not be identical. Equal entries are not always repeated.
